A mixed list of measured activities; the numbers were collected in NIAID ChemDB.

Shared fields: tests in culture; agent: Candida albicans; read-out: MIC

An empty or dashed field is not shown.

structure | strain or isolate | conditions | result
CN[C@@H]1[C@H](O[C@@H]2OC[C@@H](O)[C@H](O)[C@H]2O)[C@@H](O)[C@H](O[C@H]2c3cc(C)c(C(N)=O)c(O)c3-c3c(cc4c(c3O)C(=O)c3cc(OC)cc(O)c3C4=O)[C@@H]2O)O[C@@H]1C | A9540 | - | >100 µg/mL
Cn1nc(-c2ccccc2)nc2c(=O)n(C)c(=O)nc1-2 | IFO 0583 | - | 5 µg/mL
Oc1c(Cl)cc(Cl)c2cccnc12 | ATCC 60913 | 24 h | 6.2 µg/mL
CC(C)=CC(=O)Nc1c2sscc-2n(C)c1=O | IPA200 | - | 20 µg/mL
C/C=C\C(C)=C\[C@H](C)C(=O)C[C@H](O)CC1CC(=O)NC(=O)C1 | IFO 1060 | - | >100 µg/mL
CN[C@@H]1[C@H](O[C@@H]2OC[C@@H](O)[C@H](O)[C@H]2O)[C@@H](O)[C@H](O[C@H]2c3cc(C)c(C(=O)NCCN)c(O)c3-c3c(cc4c(c3O)C(=O)c3cc(OC)cc(O)c3C4=O)[C@@H]2O)O[C@@H]1C | A9540 | - | >100 µg/mL
COc1cc2oc(-c3ccccc3)c(OC)c(=O)c2c(OC)c1OC | - | - | 500 µg/mL
CCC(C)CC(C)CCCCCCCCC(=O)N[C@H]1C[C@@H](O)[C@@H](O)NC(=O)[C@@H]2[C@@H](O)CCN2C(=O)[C@H]([C@H](O)CC(N)=O)NC(=O)[C@H]([C@H](O)[C@@H](O)c2ccc(OC(=O)CCCC(=O)O)cc2)NC(=O)[C@@H]2C[C@@H](O)CN2C(=O)[C@H]([C@@H](C)O)NC1=O | MY1055 | - | 1 µg/mL
COc1cc(OC)c(C(C)=O)c(OC)c1 | - | - | >50 µg/mL
Cn1nc(-c2ccc(Cl)cc2)[n+]([O-])c2c(=O)n(-c3ccccc3)c(=O)nc1-2 | IFO 0583 | - | 50 µg/mL
CCC(C)CC(C)CCCCCCCCC(=O)NC1C[C@@H](O)[C@@H](O)NC(=O)[C@@H]2[C@@H](O)CCN2C(=O)[C@H]([C@@H](O)CC(N)=O)NC(=O)[C@H]([C@H](O)[C@@H](O)c2ccc(OP(=O)([O-])O)cc2)NC(=O)[C@@H]2C[C@@H](O)CN2C(=O)[C@H]([C@H](C)O)NC1=O.[Na+] | MY1055 | - | 1 µg/mL
Oc1cccc2cc(Cl)cnc12 | ATCC 60913 | 48 h | 50 µg/mL
Cn1nc(-c2ccc(Cl)cc2)nc2c(=O)n(C)c(=O)nc1-2 | IFO 0583 | - | 5 µg/mL
C[C@H](NC(=O)[C@H](Cc1ccccc1)NC(=O)[C@@H](N)CCCCN)C(=O)N[C@@H](CCCCN)C(=O)O | 10231 | - | >500 µg/mL
COc1cc2ccc(=O)oc2cc1OCC=C(C)C | - | - | 30 µg/mL
CC(=O)N1CCN(c2ccc(OC[C@H]3CO[C@](Cn4ccnc4)(c4ccc(Cl)cc4Cl)O3)cc2)CC1 | Isogenic mutant isolate 1 | - | 0.004 µg/mL
CCCCCCCCC[C@@H](O)[C@H](C)N | MTCC 7315 | - | 9.9 µM
Cn1nc(-c2ccc(Cl)c(Cl)c2)nc2c(=O)n(-c3ccccc3)c(=O)nc1-2 | IFO 0583 | - | 50 µg/mL
CC(CP(c1ccccc1)c1ccccc1)(CP(c1ccccc1)c1ccccc1)CP(c1ccccc1)c1ccccc1 | - | - | 500 µg/mL
CN[C@@H]1[C@H](O[C@@H]2OC[C@@H](O)[C@H](O)[C@H]2O)[C@@H](O)[C@H](O[C@H]2c3cc(C)c(C(=O)N[C@@H](CC(=O)O)C(=O)O)c(O)c3-c3c(cc4c(c3O)C(=O)c3cc(OC)cc(O)c3C4=O)[C@@H]2O)O[C@@H]1C | A9540 | - | >100 µg/mL
c1cc2c(cc1[C@H]1OC[C@H]3[C@@H]1CO[C@@H]3c1ccc3c(c1)OCO3)OCO2 | - | - | >50 µg/mL
CC(=O)Nc1c2sscc-2n(C)c1=O | IPA200 | - | 20 µg/mL
Cc1nc2c(=O)n(C)c(=O)nc-2n(C)n1 | IFO 0583 | - | 50 µg/mL
COc1c(O)cc2oc(-c3ccccc3)cc(=O)c2c1O | - | - | 500 µg/mL
Cn1nc(-c2ccccc2)[n+]([O-])c2c(=O)n(C)c(=O)nc1-2 | IFO 0583 | - | 5 µg/mL
CN[C@@H]1[C@H](O[C@@H]2OC[C@@H](O)[C@H](O)[C@H]2O)[C@@H](O)[C@H](O[C@H]2c3cc(C)c(C(=O)NCCC(=O)O)c(O)c3-c3c(cc4c(c3O)C(=O)c3cc(OC)cc(O)c3C4=O)[C@@H]2O)O[C@@H]1C | A9540 | - | >100 µg/mL
Cc1cccc(N(C)C(=S)Oc2ccc3ccccc3c2)c1 | 57 strains | - | >100 µg/mL
CN[C@@H]1[C@H](O[C@@H]2OC[C@@H](O)[C@H](O)[C@H]2O)[C@@H](O)[C@H](O[C@H]2c3cc(C)c(C(=O)O)c(O)c3-c3c(cc4c(c3O)C(=O)c3cc(OC)cc(O)c3C4=O)[C@@H]2O)O[C@@H]1C | A9540 | - | >100 µg/mL
CCC(C)CC(C)CCCCCCCCC(=O)N[C@H]1C[C@@H](O)[C@@H](O)NC(=O)[C@@H]2[C@@H](O)CCN2C(=O)[C@H]([C@H](O)CC(N)=O)NC(=O)[C@H]([C@H](O)[C@@H](O)c2ccc(OC(=O)NCCC(=O)O)cc2)NC(=O)[C@@H]2C[C@@H](O)CN2C(=O)[C@H]([C@@H](C)O)NC1=O | MY1055 | - | 4 µg/mL
COc1cc(O)c(C(C)=O)c(OC)c1 | - | - | 25 µg/mL
CN[C@@H]1[C@H](O[C@@H]2OC[C@@H](O)[C@H](O)[C@H]2O)[C@@H](O)[C@H](O[C@H]2c3cc(C)c(C(=O)N[C@@H](CO)C(=O)O)c(O)c3-c3c(cc4c(c3O)C(=O)c3cc(OC)cc(O)c3C4=O)[C@@H]2O)O[C@@H]1C | A9540 | - | 25 µg/mL
Oc1ccc(Cl)c2cccnc12 | ATCC 60913 | 48 h | 6.2 µg/mL

Repeating the final 4 entries:

structure | strain or isolate | conditions | result
CCC(C)CC(C)CCCCCCCCC(=O)N[C@H]1C[C@@H](O)[C@@H](O)NC(=O)[C@@H]2[C@@H](O)CCN2C(=O)[C@H]([C@H](O)CC(N)=O)NC(=O)[C@H]([C@H](O)[C@@H](O)c2ccc(OC(=O)NCCC(=O)O)cc2)NC(=O)[C@@H]2C[C@@H](O)CN2C(=O)[C@H]([C@@H](C)O)NC1=O | MY1055 | - | 4 µg/mL
COc1cc(O)c(C(C)=O)c(OC)c1 | - | - | 25 µg/mL
CN[C@@H]1[C@H](O[C@@H]2OC[C@@H](O)[C@H](O)[C@H]2O)[C@@H](O)[C@H](O[C@H]2c3cc(C)c(C(=O)N[C@@H](CO)C(=O)O)c(O)c3-c3c(cc4c(c3O)C(=O)c3cc(OC)cc(O)c3C4=O)[C@@H]2O)O[C@@H]1C | A9540 | - | 25 µg/mL
Oc1ccc(Cl)c2cccnc12 | ATCC 60913 | 48 h | 6.2 µg/mL

Lines come from different laboratories, so protocols vary.